Data as given in PubChem BioAssay AID504761 (Drosophila RNAi Screening Center, 2011)
Purpose: 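Genome-wide fly cell screen for genes dengue virus requires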 (primary screen). Cell system: D.Mel-2 cells from Drosophila. Reagents: long dsRNA against Drosophila genes. Treatment: infection with dengue virus type 2; dose and infection time not stated. Measured: 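Per well on two replicate plates, imaging gave the percent of cells positive for viral envelope protein, ranked by infection, and a nuclear count of cells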. Direction: infection score: higher = more virus-infected cells; cell count: higher = more cells in the well. Active means: 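Low infection ranks in the two replicates (chance level up to 0.065) followed by a retest with a 1.5-fold or larger significant decrease, p below 0.05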. Meaning of the calls: active = confirmed: knock-down lowers infection; inactive = not picked or not confirmed.
The deposit covers about 22,000 reagents; below is a random part of those with a known target gene and a result. Over the whole deposit, 116 (0.52%) were called active. 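Calls depend on retest data that are not deposited; infection was ranked per plate without normalising between plates; the unit of the infection score is not given.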 Raw values are not corrected between plates. Entries without a mark were called inactive. A plus sign joins genes that one reagent is predicted to hit. No sequences are given here. Not stated in the record: the amount of reagent, the time to read-out.

The opening 3 records, to show the layout:
no.	target gene	DRSC id	infection score, replicate 1	infection score, replicate 2	cell count, replicate 1	cell count, replicate 2
1	CG30039	DRSC21794	6.59	5.29	6839	6311
2	CG30039	DRSC29391			399	401
3	CG2256	DRSC18220	1.54	1.23	6296	6566

The list itself, repeating the preview:
no.	target gene	DRSC id	infection score, replicate 1	infection score, replicate 2	cell count, replicate 1	cell count, replicate 2
1	CG30039	DRSC21794	6.59	5.29	6839	6311
2	CG30039	DRSC29391			399	401
3	CG2256	DRSC18220	1.54	1.23	6296	6566
4	CG2256	DRSC28187	25.9	15.7	6061	4368
5	cact (cactus)	DRSC03501	14.4	9.49	5024	4858
6	cact (cactus)	DRSC28422	6.07	7.87	4138	3738
7	CG14572	DRSC11733	2.24	3.86	6746	6573
8	Mco3 (Multicopper oxidase 3)	DRSC15926	3.3	14	6463	2664
9	CG7149	DRSC03016	4.57	5.13	6101	5980
10	CG17266	DRSC04979	18	3.16	6017	6902
11	CG17266	DRSC22368	1.4	11.9	6003	6189
12	CG17266	DRSC24207	4.57	2.47	5691	5590
13	Ak2 (Adenylate kinase 2)	DRSC04043	23.4	0.75	3680	664
14	RpS24 (Ribosomal protein S24)	DRSC04414	3.88	1.79	6216	6935
15	RpS24 (Ribosomal protein S24)	DRSC28412	8.15	8.59	1117	966
16	Mgat4b	DRSC10256	2.16	3.91	6283	6315
17	Mgat4b	DRSC29839	2.84	0.95	6800	6214
18	Mettl2 (Methyltransferase like 2)	DRSC08398	3.72		913	390
19	Mettl2 (Methyltransferase like 2)	DRSC29727	8.97	3.88	6418	6347
20	CG3626	DRSC18318	9.45	3.36	4687	2469
21	CG3626	DRSC26443	0.63	1.57	6831	6861
22	Ugt302K1 (UDP-glycosyltransferase family 302 member K1)	DRSC16086	7.1	8.49	6351	6539
23	spd-2 (spindle defective 2)	DRSC09682	2.9	8.7	6893	6735
24	spd-2 (spindle defective 2)	DRSC26762	2.13	2.87	6278	6617
25	RpS11 (Ribosomal protein S11)	DRSC07289	9.33	4.35	6798	6642
26	RpS11 (Ribosomal protein S11)	DRSC22700	12.4	16.3	3475	2558
27	CG10209	DRSC05980	5.77	12.2	6273	6476
28	pll (pelle)	DRSC17026	6.73	3.48	6644	6813
29	pll (pelle)	DRSC28551	4.48	7.4	5787	5689
30	CG13021	DRSC17893	10.8	3.69	5578	6729
31	CG42726 + CG42727	DRSC14485	15	26.4	5543	6272
32	CG42726 + CG42727	DRSC27155	3.31	1.66	6682	6734
33	CG17440	DRSC18126	21.4	9.5	4994	2525
34	nxf2 (nuclear RNA export factor 2)	DRSC10403	6.59	7.29	6886	6944
35	nxf2 (nuclear RNA export factor 2)	DRSC26721	1.13	9.18	6908	5762
36	CG8475	DRSC03091	6.44	5.12	6134	6819
37	ChAT (Choline acetyltransferase)	DRSC16609	13	3.24	2986	6112
38	ChAT (Choline acetyltransferase)	DRSC22755	3.12	1.27	5928	864
39	Dnz1 (DNZDHHC/NEW1 zinc finger protein 11)	DRSC03317	21.5	6.62	5245	5925
40	Dnz1 (DNZDHHC/NEW1 zinc finger protein 11)	DRSC24926	1.32	4.25	6227	6519
